Laboratory results as given in patent US7402314B2, “In vivo activation of tumor-specific cytotoxic T cells” (The Scripps Research Institute, priority 1995, dated 2008).

Amino acid sequences for entries named in this document (tags omitted). A change or cut given only in a name is not applied to a line headed by its entry.
UniProt P01901: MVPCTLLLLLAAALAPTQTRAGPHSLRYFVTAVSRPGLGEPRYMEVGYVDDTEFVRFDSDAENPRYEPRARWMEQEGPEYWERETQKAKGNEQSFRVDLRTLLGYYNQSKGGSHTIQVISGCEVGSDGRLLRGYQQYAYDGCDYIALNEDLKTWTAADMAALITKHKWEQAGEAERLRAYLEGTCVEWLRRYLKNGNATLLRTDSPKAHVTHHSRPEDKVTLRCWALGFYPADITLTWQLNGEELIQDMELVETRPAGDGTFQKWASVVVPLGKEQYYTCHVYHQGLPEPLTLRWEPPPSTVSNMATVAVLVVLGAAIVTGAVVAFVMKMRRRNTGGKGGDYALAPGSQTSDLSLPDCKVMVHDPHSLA
UniProt P04439: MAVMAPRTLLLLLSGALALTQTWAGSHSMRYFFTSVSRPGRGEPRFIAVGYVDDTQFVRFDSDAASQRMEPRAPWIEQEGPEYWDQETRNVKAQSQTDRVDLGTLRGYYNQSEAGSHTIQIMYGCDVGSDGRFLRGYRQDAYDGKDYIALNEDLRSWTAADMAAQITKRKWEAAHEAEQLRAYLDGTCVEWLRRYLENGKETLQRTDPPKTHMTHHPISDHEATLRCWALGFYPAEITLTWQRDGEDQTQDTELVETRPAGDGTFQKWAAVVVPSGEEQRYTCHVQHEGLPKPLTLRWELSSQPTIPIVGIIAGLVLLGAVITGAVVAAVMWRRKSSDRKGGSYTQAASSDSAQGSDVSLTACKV

Biological target: A2.1/K^b (UniProt P01901+P04439, D140Y/D185E/D98H/E176V/G131W/I119V/I121R/I166T/N151K/N90K/Q86G/Q94H/R138H/R169H)
Test: Binding inhibition assay (competition with influenza A-specific peptide, lysis by influenza A-specific CTL clone 12)
Set-up: species or system human-mouse chimeric
Conditions: 10 μg test peptide, 0.1 μg influenza A-specific peptide; E:T=0.3:1; FIG. 1

For ASNENMETM, the “binding of test peptide to A2.1/K^b (percent specific lysis of EA2/K^b targets by influenza A-specific CTL)” value was “highest percent specific lysis”.

RGYVYQGL was tested, and the “binding of test peptide to A2.1/K^b (percent specific lysis of EA2/K^b targets by influenza A-specific CTL)” value was “highest percent specific lysis”.
